Anti-infective test results gathered from many reports (values: NIAID ChemDB through PubChem).

All rows: cytotoxicity tests; cell line: MT-2; measure: CC50

a–b is a range or a potency band.

compound,method,value
COc1cccc(CN2C(=O)N(Cc3cccc(C(=O)Nc4ccc(C)cn4)c3)[C@H](Cc3ccccc3)[C@H](O)[C@@H](O)[C@H]2Cc2ccccc2)c1,-,>50 µM
Nc1nc2c(ncn2[C@H]2CO[C@@H](CO)O2)c(=O)[nH]1,-,>500 µM
CC(C)C[C@H](N)C(=O)O.[Na+],MTT,59.17 µM
COc1ccc(/C=C/C=C/C(=O)[Se]c2ccccc2)cc1,MTT,28.5 µM
Nc1ncnc2c1ncn2[C@@H]1C=C[C@H](OCP(=O)(O)O)O1,-,>1000 µM
Nc1ncnc2c1ncn2[C@H]1CC[C@@H](CO)C1,-,>62.2 µg/mL
CC(C)CN(C[C@@H](O)[C@H](Cc1ccccc1)NC(=O)O[C@H]1CO[C@H]2OCC[C@H]21)S(=O)(=O)c1ccc2c(c1)OCO2,MTT,35.7 µM
CC(C)CN(C[C@@H](O)[C@H](Cc1ccccc1)NC(=O)O[C@H]1CCOC1)S(=O)(=O)c1ccc(N)cc1,MTT,>100 µM
C=C1C(=O)c2ccc3ccccc3c2[C@@H](c2cc(OC)c(OC)c(OC)c2)[C@@H]1C(=O)OC,propidium iodide,<25 µM
Nc1ccn([C@H]2CC[C@@H](CO)O2)c(=O)n1,-,176.3 µM
CC1=CC2=C(C(C)C)C(O)C(=O)/C(=C\N[C@H](C)C(=O)O)C2C(O)=C1c1c(C)cc2c(C(C)C)c(O)c(O)c(C=N[C@@H](C)C(=O)O)c2c1O.[Na+].[Na+],MTT,84.64 µM
CCCCCCCCN1C(=O)C(CC2=CCN(C)CC2)(CC2=CCN(C)CC2)c2ccccc21,-,36 µM
CCCN(CCC)C(=O)OCOP(=O)(CO[C@H](C)Cn1cnc2c(N)ncnc21)OCOC(=O)N(CCC)CCC,-,10 µM
CC(C)CN(C[C@@H](O)[C@H](Cc1ccccc1)NC(=O)O[C@H]1[C@H]2CCCO[C@H]2O[C@@H]1C)S(=O)(=O)c1ccc(N)cc1,MTT,40 µM
COc1cc(CN2C(=O)N(Cc3cccc(C(=O)Nc4cccc(C)n4)c3)[C@H](Cc3ccccc3)[C@H](O)[C@@H](O)[C@H]2Cc2ccccc2)cc(OC)c1,-,>50 µM
CN1CC=C(CC2(CC3=CCN(C)CC3)C(=O)N3c4ccccc4CCc4cccc2c43)CC1,-,74 µM
Nc1cccc(CN2C(=O)N(Cc3cccc(C(=O)Nc4ncc[nH]4)c3)[C@H](Cc3ccccc3)[C@H](O)[C@@H](O)[C@H]2Cc2ccccc2)c1,-,>50 µM
C[C@H]1O[C@@H]2OCCC[C@@H]2[C@@H]1OC(=O)N[C@@H](Cc1ccccc1)[C@H](O)CN1C[C@H]2CCCC[C@H]2C[C@H]1C(=O)NC(C)(C)C,MTT,27.8 µM
O=C(O)[C@@H](Cc1ccc(O)c(O)c1)[C@@H](Cc1ccc(O)c(O)c1)C(=O)O,neutral red,>76 µM
O=C(/C=C/c1ccc(O)c(O)c1)O[C@@H]1C[C@](OC(=O)/C=C/c2ccc(O)c(O)c2)(C(=O)O)C[C@@H](O)[C@H]1O,-,>250 µM
O=C(NC(=S)Nc1ccc(Br)cn1)c1ccccc1[N+](=O)[O-],MTT,86.6 µM
COc1cccc(CN2C(=O)N(Cc3cccc(C(=O)Nc4cccc(C)n4)c3)[C@H](Cc3ccccc3)[C@H](O)[C@@H](O)[C@H]2Cc2ccccc2)c1,-,>50 µM
O=C1N(Cc2ccc(CO)cc2)[C@H](Cc2ccccc2)[C@H](O)[C@@H](O)[C@@H](Cc2ccccc2)N1Cc1ccc(CO)cc1,-,61.5 µM
O=C(O[C@@H](C(=O)O)[C@@H](OC(=O)c1cccs1)C(=O)O)c1cccs1,neutral red,>190 µM
Nc1nc(N)c2ncn([C@H]3C=C[C@@H](CO)C3)c2n1,-,>58.8 µg/mL
CC(C)(C)NC(=O)[C@@H]1C[C@@H]2CCCC[C@@H]2CN1C[C@@H](OC(=O)C(CS)NC(=O)CCONC(=O)CCCCC1SCC2NC(=O)NC21)[C@H](Cc1ccccc1)NC(=O)[C@H](CC(N)=O)NC(=O)c1ccc2ccccc2n1,MTT,15 µM
C=C(C)[C@@H]1CC[C@]2(C)CC[C@]3(C)[C@H](C[C@@H](O)[C@@H]4[C@@]5(C)CC[C@@H](O)C(C)(C)[C@@H]5CC[C@]43C)[C@@H]12,ATP,20–100 µM
CC[C@@H](C)[C@@H](N/C=C1\C(=O)C(O)C(C(C)C)=C2C=C(C)C(c3c(C)cc4c(C(C)C)c(O)c(O)c(C=N[C@H](C(=O)O)[C@@H](C)CC)c4c3O)=C(O)C21)C(=O)O.[Na+].[Na+],MTT,65.62 µM
Cc1cn([C@H]2C[C@H](N=[N+]=[N-])[C@@H](CO)O2)c(=O)[nH]c1=O,-,132 µg/mL
O=S1(c2ccc(Cl)cc2)=NC(=S)Nc2ccc(Cl)cc21,-,32.8 µM
CC[C@H](C)[C@H]1NC(=O)[C@@H](NC(=O)[C@@H](C)NC)[C@@H](C)OC(=O)[C@H](Cc2ccc(OC)cc2)N(C)C(=O)[C@@H]2CCCN2C(=O)[C@H](CC(C)C)NC(=O)[C@@H](C)C(=O)[C@H](C(C)C)OC(=O)C[C@@H]1O,MTT,>55.49 µM
Nc1ncnc2c1ncn2CCOCP(=O)(O)O,-,160 µM
C[C@H]1CN2CCC[C@H]3CCCCC[C@@H]4C(=O)[C@@H](C)CN5CCC[C@@H](CCCCC[C@H](C1=O)[C@@H]32)[C@H]45,MTT,178.1 µM
CC(C)[C@H](NC(=O)OC(C)(C)C)C(=O)N[C@@H](Cc1ccccc1)[C@H]1OP(c2ccccc2)(c2ccccc2)(c2ccccc2)O[C@@H]1[C@H](Cc1ccccc1)NC(=O)[C@@H](NC(=O)OC(C)(C)C)C(C)C,-,5 µg/mL
CC[C@H](C)[C@H]1NC(=O)[C@@H](NC(=O)OC(C)(C)C)[C@@H](C)OC(=O)[C@H](Cc2ccc(OC)cc2)N(C)C(=O)[C@@H]2CCCN2C(=O)[C@H](CC(C)C)NC(=O)C(C)(C)NC(=O)C[C@@H]1O,MTT,>59.17 µM
C[C@H](N)C(=O)O.[Na+],MTT,84.64 µM
Cc1nc(CC2(Cc3csc(C)n3)C(=O)N(c3ccccc3)c3ccccc32)cs1,-,81 µM
Cc1[nH]c2ccccc2c1CC(=O)N[C@@H](Cc1ccccc1)C(=O)N(C)c1ccccc1,MTT,>100 µg/mL
CC(C)Nc1cccnc1N1CCN(C(=O)c2cc3ccccc3[nH]2)CC1,-,28 µM
COc1cc(C(O)[C@H]2C(=O)OC[C@@H]2C2(c3ccc4ccccc4c3)SCCCS2)cc(OC)c1OC,propidium iodide,>50 µM
CC1=CC2=C(C(C)C)C(O)C(=O)/C(=C\N[C@H](CC(C)C)C(=O)O)C2C(O)=C1c1c(C)cc2c(C(C)C)c(O)c(O)c(C=N[C@@H](CC(C)C)C(=O)O)c2c1O.[Na+].[Na+],MTT,59.17 µM
Nc1nc2c(ncn2[C@@H]2O[C@H](OCP(=O)(O)O)C=C2F)c(=O)[nH]1,-,700 µM
Nc1nc(NC2CC2)c2ncn([C@H]3C=C[C@@H](CO)C3)c2n1,MTT,>100 µM
Cc1ccc(NC(=O)c2cccc(CN3C(=O)N(Cc4cccc(N)c4)[C@H](Cc4ccccc4)[C@H](O)[C@@H](O)[C@H]3Cc3ccccc3)c2)nc1,-,>50 µM
CC[C@H](C)[C@H]1NC(=O)[C@@H](NC(=O)[C@@H](CC(C)C)N(C)C(=O)c2cc3ccccc3s2)[C@@H](C)OC(=O)[C@H](Cc2ccc(OC)cc2)N(C)C(=O)[C@@H]2CCCN2C(=O)[C@H](CC(C)C)NC(=O)[C@H](C(C)C)OC(=O)C[C@@H]1O,MTT,0.17 µM
O=C(Nc1ccccn1)c1cccc(CN2C(=O)N(Cc3cccc([N+](=O)[O-])c3)[C@H](Cc3ccccc3)[C@H](O)[C@@H](O)[C@H]2Cc2ccccc2)c1,-,>50 µM
Cc1cn([C@H]2C=C[C@@H](CO)O2)c(=O)[nH]c1=O,-,286 µM
O=C1N(c2ccccc2)c2ccccc2C1(Cc1nccn1Cc1ccccc1)Cc1nccn1Cc1ccccc1,-,13 µM
Cc1c(O)cccc1C(=O)N[C@@H](CSc1ccccc1)[C@H](O)CN1C[C@H]2CCCC[C@H]2C[C@H]1C(=O)NC(C)(C)CO,MTT,92.6 µM
Nc1ccn([C@H]2CC[C@@H](CO)O2)c(=O)n1,-,60 µg/mL
COc1cc(CN2C(=O)N(Cc3cccc(C(=O)Nc4ccc(C)cn4)c3)[C@H](Cc3ccccc3)[C@H](O)[C@@H](O)[C@H]2Cc2ccccc2)cc(OC)c1,-,>50 µM
NC(=O)C(c1ccccc1)(c1ccccc1)[C@H]1CCCN(CCc2ccc3c(c2)CCO3)C1,-,53 µM
Nc1nc(N)c2ncn([C@H]3CO[C@@H](CO)O3)c2n1,XTT,>1000 µM
O=C(O)[C@H](O)[C@@H](O)C(=O)O,neutral red,>1000 µM
O=C(/C=C/C=C/c1ccc([N+](=O)[O-])cc1)[Se]c1ccccc1,MTT,29.3 µM
CC(C)(C)NC(=O)c1cccc(CN2C(=O)N(Cc3cccc(N)c3)[C@H](Cc3ccccc3)[C@H](O)[C@@H](O)[C@H]2Cc2ccccc2)c1,-,>50 µM
CC[C@H](C)[C@H]1NC(=O)[C@@H](NC(=O)[C@@H](CC(C)C)N(C)S(=O)(=O)c2ccc(C)cc2)[C@@H](C)OC(=O)[C@H](Cc2ccc(OC)cc2)N(C)C(=O)[C@@H]2CCCN2C(=O)[C@H](CC(C)C)NC(=O)[C@H](C(C)C)OC(=O)C[C@@H]1O,MTT,1.14 µM
Nc1nc2c(ncn2[C@H]2C=C[C@@H](CO)O2)c(=O)[nH]1,-,40 µM
Cc1ccc(/C=C/C=C/C(=O)[Se]c2ccccc2)cc1,MTT,32.9 µM
O=S1(c2ccccc2)=NC(=S)Nc2ccccc21,-,175 µM
O=C1N(c2ccccc2)c2ccccc2C1(CCCc1cccnc1)CCCc1cccnc1,-,35 µM
CCCCOC(=O)[C@H](C)NP(=O)(CO[C@@H]1C=C(F)[C@H](n2cnc3c(N)ncnc32)O1)N[C@@H](C)C(=O)OCCCC,-,>50 µM
COc1cc(C(O)[C@@H]2C(=O)OC[C@H]2C(=O)c2cccc3ccccc23)cc(OC)c1OC,propidium iodide,>50 µM
CC(C)(N)C(=O)O.[Na+],MTT,77.35 µM
O=C1CC(C2(c3cccc4ccccc34)SCCCS2)CO1,propidium iodide,>50 µM
COc1cc(CN2C(=O)N(Cc3cccc(C(=O)Nc4cnccn4)c3)[C@H](Cc3ccccc3)[C@H](O)[C@@H](O)[C@H]2Cc2ccccc2)cc(OC)c1,-,>50 µM
Cn1nc(NS(C)(=O)=O)c2c(Cl)ccc(-n3c([C@H](Cc4cc(F)cc(F)c4)NC(=O)Cn4nc(C(F)F)c5c4C(F)(F)[C@@H]4C[C@H]54)nc(C#CC(C)(C)S(C)(=O)=O)cc3=O)c21,XTT,>0.5 µM
CCCCCCCCCCNC(=O)[C@H](Cc1ccc(O)c(O)c1)[C@@H](Cc1ccc(O)c(O)c1)C(=O)O,neutral red,>34 µM
CCOC(=O)N1CCC(CC2C(=O)N(c3ccccc3)c3ccccc32)CC1,-,48 µM
Nc1nc(N)c2ncn([C@H]3CC[C@@H](CO)C3)c2n1,-,>91.9 µg/mL
CC(C)c1cc2c(c(O)c1O)[C@@]1(C(=O)O)CCCC(C)(C)C1CC2,-,70.3 µM
O=C(/C=C/C=C/c1ccc(O)c(O)c1)[Se]c1ccccc1,MTT,31.9 µM
CSC1N=S(=O)(c2ccccc2)c2ccccc2N1,-,87.6 µM
O=C(O)c1cc(O)cc(O)c1N=Nc1ccc(/C=C/c2ccc(N=Nc3c(O)cc(O)cc3C(=O)O)cc2S(=O)(=O)O)c(S(=O)(=O)O)c1,-,110 µg/mL
CCCc1c([Se]c2ccccc2)n(COCc2ccccc2)c(=O)[nH]c1=O,MTT,>51.15 µM

10 of the rows above, restated:

compound	method	value
Nc1ncnc2c1ncn2[C@@H]1C=C[C@H](OCP(=O)(O)O)O1	-	>1000 µM
Nc1nc2c(ncn2[C@H]2C=C[C@@H](CO)O2)c(=O)[nH]1	-	40 µM
C=C1C(=O)c2ccc3ccccc3c2[C@@H](c2cc(OC)c(OC)c(OC)c2)[C@@H]1C(=O)OC	propidium iodide	<25 µM
O=C(/C=C/c1ccc(O)c(O)c1)O[C@@H]1C[C@](OC(=O)/C=C/c2ccc(O)c(O)c2)(C(=O)O)C[C@@H](O)[C@H]1O	-	>250 µM
Nc1nc2c(ncn2[C@@H]2O[C@H](OCP(=O)(O)O)C=C2F)c(=O)[nH]1	-	700 µM
C[C@H](N)C(=O)O.[Na+]	MTT	84.64 µM
CCCCOC(=O)[C@H](C)NP(=O)(CO[C@@H]1C=C(F)[C@H](n2cnc3c(N)ncnc32)O1)N[C@@H](C)C(=O)OCCCC	-	>50 µM
O=C(/C=C/C=C/c1ccc(O)c(O)c1)[Se]c1ccccc1	MTT	31.9 µM
CC[C@H](C)[C@H]1NC(=O)[C@@H](NC(=O)[C@@H](CC(C)C)N(C)S(=O)(=O)c2ccc(C)cc2)[C@@H](C)OC(=O)[C@H](Cc2ccc(OC)cc2)N(C)C(=O)[C@@H]2CCCN2C(=O)[C@H](CC(C)C)NC(=O)[C@H](C(C)C)OC(=O)C[C@@H]1O	MTT	1.14 µM
CC(C)CN(C[C@@H](O)[C@H](Cc1ccccc1)NC(=O)O[C@H]1CCOC1)S(=O)(=O)c1ccc(N)cc1	MTT	>100 µM

CCn: concentration that lowers growth or viability of the cells by n%. Neighbouring rows are from separate reports. Blank or dashed fields: not listed here.